Measured values from paper PMC9779606, “Synthesis, Structural Characterization and Biological Activity Evaluation of Novel Cu(II) Complexes with 3-(trifluoromethyl)phenylthiourea Derivatives” (International Journal of Molecular Sciences, 2022).

Test system: M. tuberculosis Spec. 210
Test: Tuberculostatic activity, Microplate Alamar Blue Assay (MABA)
Type: cell-based, Mycobacterium tuberculosis
Conditions: resistant Spec. 210 isolate
Protocol: The synthesized compounds were examined in vitro for their tuberculostatic activity using MABA method (Microplate Alamar Blue Assay method). […] The inoculum was prepared from fresh LJ culture in Middlebrook 7H9 Broth medium with OADC, adjusted to a no. 1 McFarland tube, and diluted 1:20. […] Each test compound stock solution was diluted in Middlebrook 7H9 Broth medium with OADC by fourfold, the final highest concentration to be tested. Compounds were diluted serially in sterile 96-well microtiter plates using 100 μL Middlebrook 7H9 Broth medium with OADC. […] A growth control containing no antibiotic and a sterile control without inoculation were also prepared on each plate. The plates were incubated at 37 °C for a week. After the incubation period, 30 μL of Alamar blue solution was added to each well, and the plate was re-incubated for 24 h. Growth is indicated by a color change from blue to pink and the lowest concentration of compound that prevented the color change was noted as its MIC. Isoniazid (INH), Rifampicin (RMP), Streptomycin (SM), and Ethambutol (EMB) as reference drugs were used for comparison.

SMILES	inhibitory properties stronger than the reference tuberculostatics
CC(NC(=S)[N-]c1cccc(C(F)(F)F)c1)c1ccccc1.CC(NC(=S)[N-]c1cccc(C(F)(F)F)c1)c1ccccc1.[Cu+2] (racemic) [Cu2, Copper(II) Complex with 1-(1-phenylethyl)-3-[3-(trifluoromethyl)phenyl]thiourea]	2–4 fold
FC(F)(F)c1cccc([N-]C(=S)Nc2cccc(Br)c2)c1.FC(F)(F)c1cccc([N-]C(=S)Nc2cccc(Br)c2)c1.[Cu+2] [Cu4, Copper(II) Complex with 1-(3-bromophenyl)-3-[3-(trifluoromethyl)phenyl] thiourea]	4–8 fold
O.O=[N+]([O-])c1cc(NC(=S)[N-]c2cccc(C(F)(F)F)c2)ccc1Cl.O=[N+]([O-])c1cc(NC(=S)[N-]c2cccc(C(F)(F)F)c2)ccc1Cl.[Cu+2] [Cu5, Copper(II) Complex with 1-(4-chloro-3-nitrophenyl)-3-[3-(trifluoromethyl)phenyl]thiourea]	4–8 fold
